Patent publication US20220072101A1, “HARNESSING INFLAMMATION TO TREAT NEURODEVELOPMENTAL DISORDERS” (President and Fellows of Harvard College, priority 2019, published 2022)

Tests used:
[1] = Tracking of body temperature (Anipill) after LPS injection; type: in vivo, mouse; conditions: for increase in body temperature: LPS 50 μg/kg i.p., ˜4-5 hours after the treatment
MIA offspring = test: Three-chamber social approach assay in PBS and MIA offspring; type: in vivo, mouse
Procedure: Adult male mice were assayed for sociability using a three-chamber social approach assay. The arena was constructed of white acrylic (50 cm×35 cm×30 cm). Wire cups (Spectrum Diversified®) were placed in the back left and right corner of the arena beneath water-filled 1 L bottles (Nalgene®). On Day 0, mice were habituated to the arena for 10 min. Immediately following habituation, mice were singly housed. On Day 1 (Pre), mice were placed in the center of the arena and allowed to freely explore. Following 10 min, mice were confined to the center of the arena. An inanimate object (rubber stopper) or a male conspecific were placed beneath the wire cups. Placement of the inanimate object and social target were alternated. […] Sociability was defined as interaction time with the social target divided by total interaction time and expressed as a percentage. […]
Adult male mice were assayed for sociability using a three-chamber social approach assay. […] Sociability was defined as interaction time with the social target divided by total interaction time and expressed as a percentage. […]
Adult male Vgat-Cre MIA offspring were bilaterally injected with virus encoding the inhibitory DREADD receptor fused to mCherry into the vLPO. […] For experiments assaying the effect of CNO and LPS injection in Vgat-Cre PBS and MIA offspring that have not undergone surgery, baseline sociability was assessed on day 1. […]

Question: What does the source list for lipopolysaccharide [LPS]?
Answer: changes in body temperature ([1]; MIA animals, LPS i.p.): failed to induce changes in body temperature in MIA animals; also recorded: did not induce changes in body temperature in MIA animals; increase in body temperature ([1]; PBS offspring): 0.5-1.0 0 C; increase in body temperature ([1]; control animals (offspring of PBS-injected mothers)): 0.5-1.0 °C; total distance traveled and total interaction time (MIA offspring; LPS injection into i.c.v. blocking antibody-pretreated animals): reduced total distance traveled without affecting total interaction time; overall activity (total investigation time and total distance traveled) (MIA offspring; MIA offspring injected with LPS vs vehicle-treated groups): did not display changes in overall activity

Entries after “also recorded” stand apart in the source; their conditions may differ.
